Among the data in PubChem BioAssay AID602399 (Sanford-Burnham Center for Chemical Genomics, 2012) are inhibition values, retold here.

The list shows a part of the results, in another mix than the full data. Active and inactive are the calls of the source. Cut-off read from the data, not from the text of the source: active = inhibition above about 26%; inactive = the rest.

The assay has as its system Nicotinate-nucleotide adenylyltransferase NadD (Staphylococcus aureus N315). Description: inhibitors of S. aureus NadD, primary screen, biochemical, colorimetric, uHTS (AID 602399). Particulars: purified NadD enzyme, colorimetric absorbance read-out; at 20 µM; hits give high values.
What is called inhibition is the drop in the measured response relative to a control, in per cent. With `CP(=O)(Nc1cccc(Br)c1)Oc1ccccc1` (centres undefined), the inhibition is inactive: -8.08%. To `Cc1cc(C)cc(OP(C)(=O)Nc2ccccn2)c1` (centres undefined) belongs inactive: -6.38%; to `Cc1ccc(C)c(NP(C)(=O)Oc2ccccc2)c1` (centres undefined), inactive: -1.87%; to `COc1ccccc1OP(C)(=O)Nc1cccc(Br)c1` (centres undefined), inactive: -2.66%. To `Cc1cc(C)cc(OP(C)(=O)Nc2ccc(C)cc2C)c1` (centres undefined) belongs inactive: -5.54%. As to `CCOC(=O)c1ccc(NP(C)(=O)Oc2cc(C)cc(C)c2)cc1` (centres undefined), the inhibition was inactive: -0.69%. To `CC1=NCCc2c1[nH]c1ccccc21.O=[N+]([O-])c1cc([N+](=O)[O-])c(O)c([N+](=O)[O-])c1` belongs inactive: -0.4%; to `O=C(O)c1cccc(Nc2c([N+](=O)[O-])cc([N+](=O)[O-])cc2[N+](=O)[O-])c1`, inactive: 1.41%; to `COc1ccccc1OP(C)(=O)Nc1c(C)cccc1C` (centres undefined), inactive: -5.74%. To `CN1CCCCC1COC(=O)C1(O)c2ccccc2CCc2ccccc21` (centres undefined) belongs inactive: -4.03%; to `CP(=O)(Nc1ccc(SC(F)(F)F)cc1)Oc1ccccc1` (centres undefined), inactive: -2.85%. To `CCCOc1ccc(NP(C)(=O)Oc2ccc(Cl)cc2)cc1` (centres undefined) belongs inactive: -3.23%; to `COc1ccc(-c2ccccn2)cc1.O=[N+]([O-])c1cc([N+](=O)[O-])c(O)c([N+](=O)[O-])c1`, inactive: 17.5%. As for `O=[N+]([O-])c1cc([N+](=O)[O-])c(Nc2nnnn2CCO)c([N+](=O)[O-])c1`, the inhibition was inactive: -4.86%. To `CC1=C2N=C(C=C3N=C(C(C)=C4[N-][C@@](C)([C@@H]5N=C1[C@](C)(CCC(=O)NC[C@@H](C)OP(=O)([O-])O[C@H]1[C@@H](O)[C@@H](n6cnc7cc(C)c(C)cc76)O[C@@H]1CO)[C@H]5CC(N)=O)[C@@](C)(CC(N)=O)[C@@H]4CCC(N)=O)[C@@](C)(CC(N)=O)[C@@H]3CCC(N)=O)C(C)(C)[C@@H]2CCC(N)=O.[C-]#N.[Co+3]` belongs inactive: -0.141%; to `CCOC(=O)C(CC)C1=NC(C)(C)Cc2ccccc21.O=[N+]([O-])c1cc([N+](=O)[O-])c(O)c([N+](=O)[O-])c1` (centres undefined), inactive: -2.7%. As to `O=[N+]([O-])c1cc([N+](=O)[O-])c(-c2cnn(-c3ccccc3)c2)c([N+](=O)[O-])c1`, the inhibition is inactive: -9.29%.

Regarding `Cc1nc2ccc3ccccc3c2s1.O=[N+]([O-])c1cc([N+](=O)[O-])c(O)c([N+](=O)[O-])c1`, the inhibition was inactive: -7.38%. To `O=[N+]([O-])c1cc([N+](=O)[O-])c(-n2nnc3ccccc32)c([N+](=O)[O-])c1` belongs inactive: 4.14%.
